Pooled drug test results. Numbers come from NIAID ChemDB, via PubChem.

Shared fields: whole-cell or culture tests

Lines come from different laboratories, so protocols vary.

compound | strain or isolate | species | read-out | value
COc1ccc(-c2ccc(N3CC(CNC(C)=O)CC3=O)cc2)ccc1=O | UC12084 | Staphylococcus epidermidis | MIC | >64 µg/mL
CC(=O)NC[C@H]1CN(c2ccc(-c3ccn(C(C)=O)n3)c(F)c2)C(=O)O1 | UC12084 (methicillin-resistant) | Staphylococcus epidermidis | MIC | 2 µg/mL
CC(=O)NC[C@H]1CN(c2ccc(C3CCS(=O)(=O)CC3)c(F)c2)C(=O)O1 | UC12084 | Staphylococcus epidermidis | MIC | 0.5 µg/mL
CNc1c(F)cc2c(=O)c(C(=O)O)cn(-c3cc(N)c(F)cc3F)c2c1C | 27 isolates | Staphylococcus aureus | MIC50 | 0.008 µg/mL
CCCCCCCCCCCC[N+](C)(C)COCC(CC)CCC | ATCC33592 | Staphylococcus aureus | MBC | 12.8 µM
CC(=O)NC[C@H]1CN(c2ccc(-c3cccs3)c(F)c2)C(=O)O1 | UC12084 (methicillin-resistant) | Staphylococcus epidermidis | MIC | ≤0.125 µg/mL
COc1ccc(-c2ccc(C3=CC(CNC(C)=O)OC3=O)cc2)ccc1=O | UC12084 | Staphylococcus epidermidis | MIC | 1 µg/mL
C=CC(=O)NC[C@H]1CN(c2ccc(C3CCS(=O)(=O)CC3)c(F)c2)C(=O)O1 | UC12084 | Staphylococcus epidermidis | MIC | 0.5 µg/mL
CCCCCCCC[N+](C)(C)COCC(CC)CCCC | ATCC33592 | Staphylococcus aureus | MBC | 74 µM
CC(=O)NC[C@H]1CN(c2ccc(-c3ccn(C)n3)c(F)c2)C(=O)O1 | UC12084 (methicillin-resistant) | Staphylococcus epidermidis | MIC | 2 µg/mL
COC(=O)N1CC=C(c2ccc(C3=NO[C@@H](CNC(=O)O)C3)cc2)CC1 | UC12084 | Staphylococcus epidermidis | MIC | 1 µg/mL
CCCCCCCCCCCC[N+](C)(C)COCCCCCCC | ATCC 6538 | Staphylococcus aureus | MBC | 2.64 µM
CC(=O)NC[C@H]1CN(c2ccc(-c3cc(C#N)cs3)c(F)c2)C(=O)O1 | UC12084 (methicillin-resistant) | Staphylococcus epidermidis | MIC | ≤0.5 µg/mL
CCCCCCCCOC[N+](C)(C)CCCCCCCC | ATCC33592 | Staphylococcus aureus | MBC | 149 µM
CC(=O)NC[C@H]1CN(c2ccc(-c3cnn(C(c4ccccc4)(c4ccccc4)c4ccccc4)c3)c(F)c2)C(=O)O1 | UC12084 (methicillin-resistant) | Staphylococcus epidermidis | MIC | >32 µg/mL

Repeating the first 2 entries:

compound,strain or isolate,species,read-out,value
COc1ccc(-c2ccc(N3CC(CNC(C)=O)CC3=O)cc2)ccc1=O,UC12084,Staphylococcus epidermidis,MIC,>64 µg/mL
CC(=O)NC[C@H]1CN(c2ccc(-c3ccn(C(C)=O)n3)c(F)c2)C(=O)O1,UC12084 (methicillin-resistant),Staphylococcus epidermidis,MIC,2 µg/mL

MIC50, MIC90 and the like: level of inhibition, or share of isolates inhibited.